PubChem BioAssay AID651820 (National Center for Advancing Translational Sciences (NCATS), 2012)
The entries are a selection whose mix differs from that of the whole data set. Records with an inconclusive call do not appear. Calls of active or inactive are those of the source. Calls come from the whole dose curve; as a rule, active = well fitted inhibition curve with a large enough effect; inconclusive = small, poorly fitted or top-dose-only effect, or another doubt; inactive = no such curve, though single readings can be large or run the other way.

Assay: qHTS Assay for Inhibitors of Hepatitis C Virus (HCV)
Conditions: Huh7.5.1 HCVcc-Cre (HCVcc is cell-culture hepatitis C virus) infection, luciferase reporter, 44 h; at 41.8 µM (top of the series)
Excerpt: Hepatitis C virus (HCV) infects about 200 million people in the world. Many infected people progress to chronic liver disease including cirrhosis with a risk of developing liver cancer. To date, there is no effective vaccine for hepatitis C. Current therapy based on interferon is only effective in about half of the patients and is associated with significant adverse effects. The fraction of people with HCV who can complete a successful treatment is estimated to be no more than 10 percent. Recent development of direct-acting antivirals against HCV, such as protease and polymerase inhibitors, is promising but still requires combination with peginterferon and ribavirin for maximal efficacy. In addition, these agents are associated with high rate of resistance and many have significant side effects. Due to the lack of a culture system for infectious HCV, the search for new HCV drugs has been greatly hampered. […]
The assay will start with plating 1,000 cells/well in 3 µL volume and culture for 4 h. […] A volume of 4.5 µL luciferase substrates will be added to each well and the plates will be incubated at room temperature for 15 min. and then read for 15 sec. for the luciferase activity
% is set by controls: 0 for no effect and ±100 for the full control effect.

| Compound | activity change, negative = inhibition |
| --- | --- |
| COc1ccccc1CNC(=O)COC(=O)C(O)(c1ccccc1)c1ccccc1 | inactive: 21.8% |
